Measured values from publication PMC6270420, “Antibacterial Activity of Salicylanilide 4-(Trifluoromethyl)benzoates” (Molecules, 2013).
Where two headings read alike, the source gives them in different places.

Columns and labels:
[1] = tested on: Mycobacterium tuberculosis 331/88 (H37Rv); assay: Antimycobacterial MIC micromethod, Šula's medium; assay type: cell-based; settings: SI = IC50/MIC100, MICs of salicylanilides SAL taken from ref 23
[2] = tested on: MDR-TB strains; assay type: cell-based, Mycobacterium tuberculosis; settings: SI = IC50/MIC100
[3] = tested on: Staphylococcus sp.; assay: Selectivity index IC50 (HepG2)/MIC for Staphylococcus sp.; assay type: cell-based; settings: SI = IC50/MIC100
[4] = tested on: Mtb. Praha 131 (XDR-TB); assay type: cell-based, Mycobacterium tuberculosis; settings: SI = IC50/MIC100
[5] = 14 d (second column, as printed)

## O=C(Nc1ccc(Br)cc1)c1ccc(Cl)cc1O [SAL-4]
[1]; 14 d
  SI for Mtb. H37Rv 331/88: 0.5
[1]; 21 d
  SI for Mtb. H37Rv 331/88: 0.5

## O=C(Oc1ccc(Cl)cc1C(=O)Nc1ccc(C(F)(F)F)cc1)c1ccc(C(F)(F)F)cc1 [1o, 4-chloro-2-[4-(trifluoromethyl)phenylcarbamoyl]phenyl 4-(trifluoromethyl)benzoate]
[2]; 14 d
  SI for MDR-TB strains: 1.33–2.66
[2]; 21 d
  SI for MDR-TB strains: 1.33–2.66
[3]; 24 h
  SI for Staphylococcus sp.: 0.34
[3]; 48 h
  SI for Staphylococcus sp.: 0.17
[4]; 14 d (first column)
  SI for XDR-TB strain: 2.66
[4]; [5]
  SI for XDR-TB strain: 1.33
[1]; 14 d
  SI for Mtb. H37Rv 331/88: 1.33
[1]; 21 d
  SI for Mtb. H37Rv 331/88: 1.33

## O=C(Nc1ccc(C(F)(F)F)cc1)c1ccc(Cl)cc1O [SAL-6]
[1]; 14 d
  SI for Mtb. H37Rv 331/88: 0.17
[1]; 21 d
  SI for Mtb. H37Rv 331/88: 0.17

## O=C(Oc1ccc(Cl)cc1C(=O)Nc1ccc(Cl)c(Cl)c1)c1ccc(C(F)(F)F)cc1 [1e]
[2]; 14 d
  SI for MDR-TB strains: 1.57–3.13
[2]; 21 d
  SI for MDR-TB strains: 0.78–1.57
[3]; 24 h
  SI for Staphylococcus sp.: 6.39
[3]; 48 h
  SI for Staphylococcus sp.: 3.19
[4]; 14 d (first column)
  SI for XDR-TB strain: 1.57
[4]; [5]
  SI for XDR-TB strain: 1.57
[1]; 14 d
  SI for Mtb. H37Rv 331/88: 3.13
[1]; 21 d
  SI for Mtb. H37Rv 331/88: 3.13

## O=C(Oc1ccc(Br)cc1C(=O)Nc1ccc(C(F)(F)F)cc1)c1ccc(C(F)(F)F)cc1 [1r]
[2]; 14 d
  SI for MDR-TB strains: 2.03–4.06
[2]; 21 d
  SI for MDR-TB strains: 1.02–2.03
[4]; 14 d (first column)
  SI for XDR-TB strain: 4.06
[4]; [5]
  SI for XDR-TB strain: 2.03
[1]; 14 d
  SI for Mtb. H37Rv 331/88: 2.03
[1]; 21 d
  SI for Mtb. H37Rv 331/88: 2.03

## O=C(Nc1ccc(Cl)c(Cl)c1)c1cc(Cl)ccc1O [SAL-1]
[1]; 14 d
  SI for Mtb. H37Rv 331/88: 0.21
[1]; 21 d
  SI for Mtb. H37Rv 331/88: 0.10

## O=C(Oc1cc(Cl)ccc1C(=O)Nc1ccc(Br)cc1)c1ccc(C(F)(F)F)cc1 [1j]
[3]; 24 h
  SI for Staphylococcus sp.: 9.84
[3]; 48 h
  SI for Staphylococcus sp.: 4.92
[4]; 14 d (first column)
  SI for XDR-TB strain: 4.82
[4]; [5]
  SI for XDR-TB strain: 2.41
[1]; 14 d
  SI for Mtb. H37Rv 331/88: 2.41
[1]; 21 d
  SI for Mtb. H37Rv 331/88: 1.21

## O=C(Oc1cc(Cl)ccc1C(=O)Nc1ccc(Cl)c(Cl)c1)c1ccc(C(F)(F)F)cc1 [1f]
[2]; 14 d
  SI for MDR-TB strains: 2.23–4.46
[2]; 21 d
  SI for MDR-TB strains: 2.23
[4]; 14 d (first column)
  SI for XDR-TB strain: 4.46
[4]; [5]
  SI for XDR-TB strain: 2.23
[1]; 14 d
  SI for Mtb. H37Rv 331/88: 4.46
[1]; 21 d
  SI for Mtb. H37Rv 331/88: 2.23

## O=C(Nc1ccc(C(F)(F)F)cc1)c1cc(Br)ccc1O [SAL-7, 5-Bromo-2-hydroxy-N-[4-(trifluoromethyl)phenyl]benzamide]
[1]; 14 d
  SI for Mtb. H37Rv 331/88: 1.67
[1]; 21 d
  SI for Mtb. H37Rv 331/88: 1.67

## O=C(Nc1ccc(Cl)c(Cl)c1)c1ccc(Cl)cc1O [SAL-2]
[1]; 14 d
  SI for Mtb. H37Rv 331/88: 0.45
[1]; 21 d
  SI for Mtb. H37Rv 331/88: 0.45

## O=C(Oc1cc(Cl)ccc1C(=O)Nc1ccc(C(F)(F)F)cc1)c1ccc(C(F)(F)F)cc1 [1p]
[3]; 24 h
  SI for Staphylococcus sp.: 3.61
[3]; 48 h
  SI for Staphylococcus sp.: 1.81
[1]; 14 d
  SI for Mtb. H37Rv 331/88: 0.89
[1]; 21 d
  SI for Mtb. H37Rv 331/88: 0.89

## O=C(Nc1ccc(C(F)(F)F)cc1)c1cc(Cl)ccc1O [SAL-5, 5-chloro-2-hydroxy-N-[4-(trifluoromethyl)phenyl]benzamide]
[1]; 14 d
  SI for Mtb. H37Rv 331/88: 0.18
[1]; 21 d
  SI for Mtb. H37Rv 331/88: 0.18

## O=C(Oc1ccc(Cl)cc1C(=O)Nc1cccc(Br)c1)c1ccc(C(F)(F)F)cc1 [1g]
[2]; 14 d
  SI for MDR-TB strains: 1.32–2.63
[2]; 21 d
  SI for MDR-TB strains: 1.32
[4]; 14 d (first column)
  SI for XDR-TB strain: 2.63
[4]; [5]
  SI for XDR-TB strain: 1.32
[1]; 14 d
  SI for Mtb. H37Rv 331/88: 2.63
[1]; 21 d
  SI for Mtb. H37Rv 331/88: 1.32
